The values that follow come from PubChem BioAssay AID2629 (Broad Institute, 2010).

The chains behind the UniProt entries cited, without tags or fusion partners.
UniProt Q9QR71, whole entry: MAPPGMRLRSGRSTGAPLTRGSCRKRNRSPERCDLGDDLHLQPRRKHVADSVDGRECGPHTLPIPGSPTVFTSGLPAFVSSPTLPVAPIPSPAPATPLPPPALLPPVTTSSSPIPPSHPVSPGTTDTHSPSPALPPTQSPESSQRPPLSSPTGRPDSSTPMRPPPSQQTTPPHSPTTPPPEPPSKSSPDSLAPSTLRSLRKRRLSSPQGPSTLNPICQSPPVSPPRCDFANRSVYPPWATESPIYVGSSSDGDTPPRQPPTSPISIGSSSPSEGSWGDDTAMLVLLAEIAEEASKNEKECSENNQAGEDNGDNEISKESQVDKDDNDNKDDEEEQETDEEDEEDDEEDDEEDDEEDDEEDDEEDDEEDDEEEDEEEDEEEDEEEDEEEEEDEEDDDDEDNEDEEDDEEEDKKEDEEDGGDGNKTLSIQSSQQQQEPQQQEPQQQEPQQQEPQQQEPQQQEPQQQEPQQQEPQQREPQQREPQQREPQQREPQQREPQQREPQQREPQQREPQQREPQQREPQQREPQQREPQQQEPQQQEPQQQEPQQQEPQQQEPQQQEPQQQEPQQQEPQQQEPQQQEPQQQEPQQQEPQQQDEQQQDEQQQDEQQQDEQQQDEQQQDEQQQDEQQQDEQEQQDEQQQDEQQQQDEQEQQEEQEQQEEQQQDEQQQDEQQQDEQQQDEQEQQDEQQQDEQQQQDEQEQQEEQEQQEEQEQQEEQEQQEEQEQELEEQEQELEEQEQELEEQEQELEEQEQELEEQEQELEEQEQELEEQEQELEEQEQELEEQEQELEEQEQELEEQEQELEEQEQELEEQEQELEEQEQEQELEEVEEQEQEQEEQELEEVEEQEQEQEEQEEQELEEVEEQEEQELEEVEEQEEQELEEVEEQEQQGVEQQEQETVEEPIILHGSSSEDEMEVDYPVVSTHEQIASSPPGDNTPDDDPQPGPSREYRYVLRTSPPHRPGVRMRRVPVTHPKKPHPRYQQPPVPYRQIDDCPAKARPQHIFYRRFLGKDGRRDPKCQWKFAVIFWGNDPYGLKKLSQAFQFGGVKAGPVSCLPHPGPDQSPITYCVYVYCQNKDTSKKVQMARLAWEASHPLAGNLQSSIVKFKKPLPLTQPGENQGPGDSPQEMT

The term inhibition denotes the change of the read-out against control, counted positive when it falls.

The entries are a selection whose mix differs from that of the whole data set. The source made the active and inactive calls. Rule as the data show it: active = inhibition mostly above about 10% (no sharp cut-off); inactive = mostly below about 6.7%.

The assay concerns the target Protein LANA1 (Human herpesvirus 8 type P (isolate GK18)) (UniProt Q9QR71). As to the kind of experiment: blockers of LANA interaction with H2A/H2B – biochemical, FP readout, HTS, primary screen (AID 2629). The following applies: cell-free LANA-H2A/H2B peptide, fluorescence polarization; hits give high values; concentration not given here. Background: Fluorescence polarisation rises when a labelled molecule tumbles more slowly, as on binding a larger partner.
On to `COc1ccccc1OP(C)(=O)Nc1c(C)cccc1C` (configuration not stated), for which the inhibition is inactive: -3.04%. In the case of `O=P1(Nc2ncccn2)COc2ccccc2OC1`, the inhibition was inactive: -2.63%. In the case of `CCCOc1ccc(NP(C)(=O)Oc2ccc(Cl)cc2)cc1` (configuration not stated) it was inactive: 5.08%; in that of `Nc1cccc([As](=O)(O)c2ccccc2)c1`, inactive: 3.74%.

Regarding `CP(=O)(Nc1ccc(SC(F)(F)F)cc1)Oc1ccccc1` (configuration not stated), the inhibition is inactive: 1.26%. The result for `O=[As](O)(c1cccs1)c1cccs1` reads inactive: 3.41%; that for `Cc1ccc(OCC(=O)OC2CN3CCC2CC3)cc1` (configuration not stated), inactive: 0.0209%. The result for `NS(=O)(=O)c1cccc(NC(=O)COC(=O)C(O)(c2ccccc2)c2ccccc2)c1` reads inactive: 3.35%; that for `O=P1(Nc2ccc(Br)cn2)COc2ccccc2OC1`, inactive: -1.39%; that for `CCC1=CC2Cc3nc4ccc(Cl)cc4c(N)c3C(C1)C2` (configuration not stated), inactive: 0.435%. In the case of `O=P1(Nc2ccccn2)COc2ccccc2OC1`, the inhibition is inactive: -0.0239%. `O=[N+]([O-])c1cc([N+](=O)[O-])c(-n2nnc3ccccc32)c([N+](=O)[O-])c1`: the inhibition was inactive: 2.33%.

For the compound `CCOP(=O)(NC(=NC(C)c1ccccc1)NC(C)c1ccccc1)OCC` (configuration not stated), the inhibition is inactive: 4.02%. As for `CCOP(=O)(Nc1ccc(C)cn1)OCC`, the inhibition is inactive: -3.05%. In the case of `CN(CCCl)Cc1cc(Cl)c(NC2=NCCN2)c(Cl)c1` it was inactive: 2.92%; in that of `Clc1n[nH]nc1-c1nn[nH][15n]1`, inactive: 3.49%. For `CC(C)(C)C(=O)NC(Sc1ncccn1)C(Cl)(Cl)Cl` (configuration not stated), the inhibition was inactive: -0.0355%. On to `O=[N+]([O-])c1cc([N+](=O)[O-])c(-c2cnn(-c3ccccc3)c2)c([N+](=O)[O-])c1`, for which the inhibition is inactive: 1.44%.

Regarding `COc1ccccc1CNC(=O)COC(=O)C(O)(c1ccccc1)c1ccccc1`, the inhibition was inactive: -4.37%. The result for `CN(C(=O)Cc1ccc(Cl)c(Cl)c1)[C@@H]1CCCC[C@H]1N1CCCC1` reads inactive: 5.21%; that for `CC(C)/C=N\N=C(\N)N[N+](=O)[O-]`, inactive: 5.15%; that for `O=[As](O)(c1ccccc1Br)c1ccccc1Br`, inactive: 0.00228%. Regarding `Cc1nc2ccc3ccccc3c2s1.O=[N+]([O-])c1cc([N+](=O)[O-])c(O)c([N+](=O)[O-])c1`, the inhibition is inactive: -0.842%.

Consider `CC1(CBr)Cn2c(nc3ccccc3c2=O)S1` (configuration not stated), for which the inhibition was inactive: -4.03%. For `O=P(Nc1nccs1)(c1ccccc1)c1ccccc1`, the inhibition was inactive: 0.526%. The result for `CC(C)C(=O)NC(Sc1ccccc1)C(Cl)(Cl)Cl` (configuration not stated) reads inactive: 6.46%; that for `CP(=O)(Nc1ccc(SC(F)(F)F)cc1)Oc1ccc(F)cc1` (configuration not stated), inactive: -1.13%.
